First the molecules themselves.
B1: P5A-2G7 (antibody, human IgG1, lambda, V domains shown)
VH: QVQLQESGPGLVKPSETLSLTCTVSGDSVSSGSYYWSWIRQPPGKGLEWIGYIYYSGSTNYNPSLKSRVTISVDTSKNQFSLKLSSVTAADTAVYYCARERCYYGSGRAPRCVWFDPWGQGTLVTVSS
VL: QSALTQPASVSGSPGQSITISCTGTSSDVGGYNYVSWYQQHPGKAPKLMIYDVSNRPSGVSNRFSGSKSGNTASLTISGLQAEDEADYYCSSYTSSSTLVVFGGGTKLTVLG
B2: P5A-1D2 (antibody, human IgG1, lambda, V domains shown)
VH: EVQLVESGGGLIQPGGSLRLSCAASGFIVSSNYMSWVRQAPGKGLEWVSIIYSGGSTYYADSVKGRFTISRDNSNNTLYLQMNSLRAEDTAVYYCARALQVGATSDYFDYWGQGTLVTVSS
VL: QSVLTQPPSVSGAPGQRVTISCTGSSSNIGAGYDVHWYQQLPGTAPKLLIYGNSNRPSGVPDRFSGSKSGTSASLAITGLQAEDETDYYCQSCDSSLSVVVFGGGTKLTVLG
B3: P5A-2G9 (antibody, human IgG1, lambda, V domains shown)
VH: QVQLVESGGGVVQPGRSLRLSCAASGFTFSSYGMHWVRQAPGKGLEWVAVIWYDGSNKYYADSVKGRFTISRDNSKNTLYLQMNSLRAEDTAVYYCARWFHTGGYFDYWGQGTLVTVSS
VL: QPVLTQPPSSSASPGESARLTCTLPSDINVSSYNIYWYQQKPGSPPRYLLYYYSDSDKGQGSGVPSRFSGSKDASANTGILLISGLQSEDEADYYCMIWPSNALYVFGTGTKVTVLG
B4: P2B-2G4 (antibody, V domains shown)
VH: QVQLVESGGGVVQPGRSLRLSCAASGFTFSSYGMHWVRQAPGKGLEWVAVIWYDGSNKYYADSVKGRFTISRDNSKNTLYLQMNSLRAEDTAVYYCARGAAMVWLDYWGQGTLVTVSS
VL: B1 VL with A8R, I18V, N55K, S61P, N62D, S91C, T94A, S95G, S97Y, L99F
notes: human IgG1, lambda
B5: P2A-1A8 (antibody, V domains shown)
VH: EVQLVESGGDLVQPGRSLRLSCAASGFAFDDYAMHWVRQAPGKGLEWVSGSTWNSGTIAYADSVKGRFTISRDNAKKSLYLQMNSLRTEDTALYYCAKLGGYSDYDYPRPGDHYYGLDVWGQGTTVTVSS
VL: QSALTQPASVSGSPGQSITISCTGTSSDVGSYNLVSWYQQHPGKVPKLLIYDVNKRPSGISNRFSGSKSGNTASLTISGLQAEDEADYYCRSYTDSNTYVFGTGTKVTVLG
notes: human IgG1, lambda
B6: P2A-1A10 (antibody, V domains shown)
VH: not shown
VL: DIVMTQTPLSLPVTPGEPASISCRSSQSLLDSDDGNTYLDWYLQKPGQSPQLLIYTLSYRASGVPDRFSGSGSGTDFTLKISRVEAEDVGVYYCMQRIEFPLTFGGGTKVEIKR
notes: human IgG1, kappa
B7: P2A-1A9 (antibody, V domains shown)
VH: EVQLVESGGGLVQPGRSLRLSCAASGFTFDDYAMHWVRQVPGKGLEWVSGISWNGGIIGYADSVKGRFTISRDNAKTSLYLQMNSLRAEDTALYYCAKVAGRGDYDYYYGMDVWGQGTTVTVSS
VL: B2 VL with S54N, T86A, C93Y, V99G, V100S
notes: human IgG1, lambda
B8: P2B-2G11 (antibody, V domains shown)
VH: B7 VH with V40A, R87K, A88P
VL: B2 VL with S54N, T86A, C93Y, V99G, V100S
notes: human IgG1, lambda
B9: P2A-1B3 (antibody, V domains shown)
VH: EVQLVESGGGLVQPGGSLRLSCVASGFSFNRYSMNWLRQTPRKGLEWLSYISASGNTIYYADSVRGRFTTSRDNAKNTLYLQMNSLRDDDTAVYFCARPAMVREGTYNWFDPWGQGTLVTVSS
VL: EIVLTQSPGTLSLSPGERATLSCRASQSVSNDYLAWYQQKPGQAPRLLIYYASSRATGIPDRFSGSGSGTDFTLTISRLEPGDSAVYYCQQYGDSPPITFGQGTRLEIKR
notes: human IgG1, kappa

Residue numbers refer to the chain shown, from its start. Numbers in names are those of the source.

These results are taken from US20210292392A1 (TSB THERAPEUTICS BEIJING, published 2021).

In the first assay the target is spike protein of live SARS-CoV-2 (SARS-CoV-2, UniProt P0DTC2 14-1273). As to the kind of experiment: cell-based or functional assay.
Take B1: the “Live virus IC50” value was 0.181 µg/mL and the “Live virus IC80” value worked out at 0.836 µg/mL.

Take B2: the “Live virus IC50” value was 0.0273 µg/mL and the “Live virus IC80” value came to 0.432 µg/mL.

With B3, the “Live virus IC50” value was 0.0113 µg/mL and the “Live virus IC80” value came to 0.119 µg/mL.

For another assay, the target named is recombinant RBD of the spike protein of SARS-CoV (SARS-CoV, UniProt P59594 306-527). As to the kind of experiment: SPR, RBD on CM5 chip. On the technique in general: SPR reads the build-up and loss of mass on a sensor chip optically.
On to B4, for which the binding result is “no binding (tested: not printed)”.

B5: the binding result is “no binding (tested: not printed)”.

Regarding B6, the binding result was “no binding (tested: not printed)”.

As to B7, the binding result is given as “no binding (tested: not printed)”.

On to B8, for which the binding result was “no binding (tested: not printed)”.

Turning to B9, the binding result was “no binding (tested: not printed)”.

In another assay the target is recombinant RBD of the spike protein of SARS-CoV-2 (residues Arg319-Phe541) (SARS-CoV-2, UniProt P0DTC2 319-541). As to the kind of experiment: SPR, RBD on CM5 chip.
Consider B5, for which the Kd came out at 8.91 nM.

Usually Kd stands for a measure of binding affinity in units of concentration.
